Results of unrelated studies side by side (data: NIAID ChemDB).

All rows: growth or infection tests; organism: Herpes simplex virus 1; method: plaque count; endpoint: EC50

ECn: concentration that inhibits the pathogen or its effect by n%.

smiles,strain,cells,value
CC(=O)NC[C@H]1O[C@@H](n2cc(C)c(=O)[nH]c2=O)C[C@@H]1OC(C)=O,-,BHK,>1.5 µM
O=c1c2cnn(-c3ccccc3)c2nc2n1N=C(c1ccc(Cl)cc1)CN2c1ccccc1,-,VERO,15 µg/mL
C1C2C3CC4C1C1C2NC3C41,-,BHK-21,>25 µg/mL
CCOC(=O)P(=O)(O)OCC,-,VERO,>500 µM
Nc1nc2c(ncn2COCCO)c(=O)[nH]1,Clinical isolate,VERO,0.42 µM
CCOP(=O)(OCC)C(=O)OC,-,VERO,>500 µM
Nc1nc2c(ncn2COCCO)c(=O)[nH]1,KOS,VERO,3.3 µM
COC(=O)[C@H](C)NP(=O)(OCC1C/C1=C/n1cnc2c(N)ncnc21)Oc1ccccc1,-,VERO,>1 µM
C/C=C1/CCC23C[C@H]1C[C@@H]2CC[C@H]1[C@]2(C)COC(C)(C)O[C@@H]2CC[C@@]13C,-,VERO,>500 µM
CCC(=O)NC[C@H]1O[C@@H](n2cc(I)c(=O)[nH]c2=O)C[C@@H]1O,-,BHK,>1 µM
C[C@@]12COCO[C@@H]1CC[C@@]1(C)[C@H]2CC[C@H]2C[C@@H]3CC21CCC31COCO1,-,VERO,>500 µM
O=c1c2cnn(-c3ccccc3)c2nc(Nc2ccccc2)n1/N=C/c1ccc(F)cc1,-,VERO,22 µg/mL
C[C@@]1(CO)[C@H](O)CC[C@@]2(C)[C@H]1CC[C@H]1C[C@@H]3CC12CC1O[C@]13C,-,VERO,>500 µM
CC(C)NCC(O)c1ccc(O)c(O)c1,B2006 (TK-),HEL,66 µg/mL
O=C(O)C(Cl)(Br)P(=O)(O)O,F,-,790 µM
CC1(C)OC[C@]2(C)[C@@H](CC[C@@]3(C)[C@H]2CC[C@H]2C[C@@H]4[C@H](O)C23CCC42OC(C)(C)O2)O1,-,VERO,>500 µM
CC(=O)O[C@@H]1CC2CC(=O)[C@]3(C)CC[C@@]2(C3)[C@@]2(C)CCC[C@@](C)(C(=O)O)[C@H]12,F,HeLa,50.5 µM
O=c1[nH]c(=O)n([C@H]2C[C@H](O)[C@@H](CO)O2)cc1F,KOS,MRC-5,259 µM
CCCCC(=O)NC[C@H]1O[C@@H](n2cc(I)c(=O)[nH]c2=O)C[C@@H]1O,-,BHK,>0.7 µM
O=C(O)CP(=O)(O)O,90155,SIRC,<100 µM
CCCOC(=O)c1cc(O)c(O)c(O)c1,KOS,HEL,17 µg/mL
O=C(Oc1ccccc1)P(=O)(O)O,-,VERO,60 µM
C#Cc1cn([C@H]2C[C@H](O)[C@@H](CO)O2)c(=O)[nH]c1=O,-,HEL,2.54 µM
Nc1nc2c(ncn2COCCO)c(=O)[nH]1,-,MRC-5,2.2 µM
C[C@H]1O[C@@H](O[C@H]2CC[C@@]3(C)[C@H](CC[C@@H]4[C@@H]3C[C@@H](O)[C@]3(C)[C@@H](C5=CC(=O)OC5)CC[C@]43O)C2)C[C@H](O)[C@@H]1O[C@H]1C[C@H](O)[C@H](O[C@H]2C[C@H](O)[C@H](O[C@@H]3C[C@H](CO)[C@@H](O)[C@H](O)[C@H]3O)[C@@H](C)O2)[C@@H](C)O1,KOS,VERO,0.94 µM
COc1cc(O)c2c(=O)cc(-c3ccc(OC)c(-c4c(O)cc(O)c5c(=O)cc(-c6ccc(O)cc6)oc45)c3)oc2c1,HF,HeLa,0.91 µg/mL
O=c1c2cnn(-c3ccccc3)c2nc2n1N=C(c1ccc(Br)cc1)CN2c1ccccc1,-,VERO,20 µg/mL
O=c1[nH]c(=O)n([C@@H]2O[C@H](CO)[C@@H](O)[C@@H]2O)cc1/C=C/I,-,HEL,0.119 µM
O=c1[nH]c(=S)n([C@H]2C[C@H](O)[C@@H](CO)O2)cc1F,TK-,MRC-5,>383 µM
COc1ccc2nc3cc(Cl)ccc3c(Nc3ccco3)c2c1,-,VERO 76,>7 µM
[N-]=[N+]=NC[C@H]1O[C@@H](n2ccc(=O)[nH]c2=O)C[C@@H]1O,-,BHK,>2 µM
O=c1[nH]c(=O)n([C@@H]2O[C@H](CO)[C@@H](O)[C@@H]2O)cc1/C=C/Cl,-,HEL,0.086 µM
C[C@@]12CC[C@]3(C1)C(C[C@@H](O)[C@H]1[C@](C)(CO)CCC[C@@]13C)C[C@H]2O,F,HeLa,74 µM
O=c1[nH]c(=O)n([C@@H]2O[C@H](CO)[C@@H](O)[C@@H]2O)cc1/C=C/Br,-,HEL,0.06 µM
CC(=O)O[C@H]1C[C@H](O[C@H]2[C@@H](O)C[C@H](O[C@H]3[C@@H](O)C[C@H](O[C@H]4CC[C@@]5(C)[C@H](CC[C@@H]6[C@@H]5CC[C@]5(C)[C@@H](C7=CC(=O)OC7)CC[C@]65O)C4)O[C@@H]3C)O[C@@H]2C)OC(C)[C@H]1O[C@@H]1O[C@H](CO)[C@@H](O)[C@H](O)[C@H]1O,29R,VERO,0.39 µM
NCC(O)c1ccc(O)c(O)c1,B2006 (TK-),HEL,35 µg/mL
O=c1[nH]c(=O)n([C@@H]2C[C@@H](O)[C@H](CO)O2)cc1/C=C/Br,-,HELA TK-,0.9 µM
O=C(O)P(=O)(O)O,F,-,52 µM
C[C@H]1O[C@@H](O[C@H]2CC[C@@]3(C)[C@H](CC[C@@H]4[C@@H]3CC[C@]3(C)[C@@H](C5=CC(=O)OC5)C(O)C[C@]43O)C2)C[C@H](O)[C@@H]1O[C@@H]1O[C@H](CO)[C@@H](O)[C@H](O)[C@H]1O,KOS,VERO,0.83 µM
CC(=O)NC[C@H]1O[C@@H](n2cc(C)c(=O)[nH]c2=O)C[C@@H]1O,-,BHK,>1.8 µM
COc1ccc2nc3cc(Cl)ccc3c(N[C@@H]3CCCN4CCCC[C@H]34)c2c1,-,VERO 76,>70 µM
COC(=O)[C@H](C)NP(=O)(OC[C@H]1C/C1=C/n1cnc2c(=O)[nH]c(N)nc21)Oc1ccccc1,-,VERO,>100 µM
O=c1[nH]c(=O)n([C@@H]2O[C@H](CO)[C@@H](O)[C@@H]2F)cc1/C=C/Br,-,HEL,0.14 µM
Nc1nc(=S)n([C@H]2C[C@H](O)[C@@H](CO)O2)cc1I,KOS,RPMI8226,22.8 µM
CC(=O)N[C@H]1[C@@H](O[C@@H]2O[C@H](C[C@@H](O)[C@H]3O[C@@H](n4ccc(=O)[nH]c4=O)[C@H](O)[C@@H]3O)[C@H](O)[C@H](O)[C@H]2NC(=O)/C=C/CC(C)C)O[C@H](CO)[C@@H](O)[C@@H]1O,-,Chicken fibroblasts,<0.5 µg/mL
O=C(O)P(=O)(O)Oc1ccccc1,-,VERO,15 µM
COc1cc2c(cc1CO)CC[C@H]1C(C)(CO)[C@H](O)CC[C@]21C,-,VERO,100 µM
C[C@@]1(CO)[C@H](O)CC[C@@]2(C)[C@H]1CC[C@H]1C[C@@H]3C[C@@]12CC[C@]31CO1,-,-,1.3 µM
CC#Cc1cn([C@@H]2O[C@H](CO)[C@@H](O)[C@@H]2O)c(=O)[nH]c1=O,-,HEL,>1135 µM
COC(=O)[C@H](C)NP(=O)(OC[C@H]1C/C1=C/n1cnc2c(OC)nc(N)nc21)Oc1ccccc1,-,VERO,0.6 µM
C[C@H]1OC(O[C@H]2[C@@H](O)C[C@H](O[C@@]3(C)[C@@H](O)C[C@H](O[C@H]4CC[C@@]5(C)[C@H](CC[C@@H]6[C@@H]5C[C@@H](O)[C@]5(C)[C@@H](C7=CC(=O)OC7)CC[C@]65O)C4)O[C@@H]3C)O[C@@H]2C)C[C@H](O)[C@@H]1O,KOS,VERO,0.66 µM
Cc1cn([C@H]2C[C@H](O)[C@@H](CO)O2)c(=O)[nH]c1=O,TK-,MRC-5,>413 µM
O=c1c2cnn(-c3ccccc3)c2nc2n1N=C(c1ccc(F)cc1)CN2c1ccccc1,-,VERO,21 µg/mL
CC1(C)CCC[C@@]2(C)[C@H]1CC[C@H]1C[C@@H]3CC12CCC3=O,-,VERO,>500 µM
C[C@@H](Oc1ccc(Cl)cc1)C(=O)O,TYLER,HeLa,800 µM
COc1ccc2nc3cc(Cl)ccc3c(N3CCCC(O)C3)c2c1,-,VERO 76,>45 µM
C[C@H]1O[C@@H](O[C@H]2[C@@H](O)C[C@H](O[C@H]3CC[C@@]4(C)[C@H](CC[C@@H]5[C@@H]4CC[C@]4(C)[C@@H](C6=CC(=O)OC6)CC[C@]54O)C3)O[C@@H]2C)C[C@H](O)[C@@H]1O,29R,VERO,0.1 µM
CC(=O)OC[C@@]1(O)CCC23C[C@H]1C[C@@H]2CC[C@@H]1[C@]3(C)CCC(=O)[C@@]1(C)COS(=O)(=O)c1ccc(C)cc1,-,VERO,>500 µM
CC(=O)O[C@H]1[C@@H](O)C[C@H](O[C@H]2[C@@H](O)C[C@H](O[C@H]3[C@@H](O)C[C@H](O[C@H]4CC[C@@]5(C)[C@H](CC[C@@H]6[C@@H]5CC[C@]5(C)[C@@H](C7=CC(=O)OC7)CC[C@]65O)C4)O[C@@H]3C)O[C@@H]2C)O[C@@H]1C,KOS,VERO,0.36 µM
Cc1cn([C@@H]2O[C@H](CO)C[C@@H]2O)c(=O)[nH]c1=O,-,HEL,>1322 µM
O=C(O)P(=O)(O)O,11-Aug,SIRC,<500 µM
COc1nc(N)nc2c1ncn2C=C1CC1CO,-,VERO,>50 µM
O=c1[nH]c(=O)n([C@H]2C[C@H](O)[C@@H](CO)O2)cc1/C=C/Br,-,U373-MG,<0.01 µM
C[C@@]1(CO)[C@H](O)CC[C@@]2(C)[C@H]1CC[C@H]1C[C@@H]3C[C@@]12CC[C@]3(O)CO,F,HeLa,0.24 µM
O=c1c2cnn(-c3ccccc3)c2nc(Nc2ccccc2)n1/N=C/c1ccc(Br)cc1,-,VERO,30 µg/mL
COc1ccc2nc3cc(Cl)ccc3c(NCCN3CCCC(O)C3)c2c1,-,VERO 76,>14 µM
CC(=O)O[C@@H]1CC2C[C@@H](O)[C@H]3[C@](C)(C(=O)O)CCC[C@]3(C)[C@]23CC[C@]1(C)C3,F,HeLa,146 µM
O=c1[nH]c(=S)n([C@@H]2O[C@H](CO)[C@@H](O)[C@@H]2O)cc1Cl,KOS,MRC-5,24.5 µM

For reference, 5 entries again:

smiles,strain,cells,value
O=c1c2cnn(-c3ccccc3)c2nc2n1N=C(c1ccc(Cl)cc1)CN2c1ccccc1,-,VERO,15 µg/mL
CC(=O)NC[C@H]1O[C@@H](n2cc(C)c(=O)[nH]c2=O)C[C@@H]1O,-,BHK,>1.8 µM
C[C@H]1O[C@@H](O[C@H]2CC[C@@]3(C)[C@H](CC[C@@H]4[C@@H]3C[C@@H](O)[C@]3(C)[C@@H](C5=CC(=O)OC5)CC[C@]43O)C2)C[C@H](O)[C@@H]1O[C@H]1C[C@H](O)[C@H](O[C@H]2C[C@H](O)[C@H](O[C@@H]3C[C@H](CO)[C@@H](O)[C@H](O)[C@H]3O)[C@@H](C)O2)[C@@H](C)O1,KOS,VERO,0.94 µM
CCOC(=O)P(=O)(O)OCC,-,VERO,>500 µM
Nc1nc2c(ncn2COCCO)c(=O)[nH]1,Clinical isolate,VERO,0.42 µM

Blank or dashed fields: not listed here. Rows are shuffled and stem from different studies.